Patent US20030198617A1, “Pharmaceutical tryptophan containing dipeptide compositions and methods of use thereof” (priority 1993, published 2003)

Test system: Mycobacterium tuberculosis
Conditions: 50-100 μg on alternate days

Substance: Glu-Trp [IM862]
- tolerance, allergic reactions and other complications: well-tolerated
